The nature of the first series: peptide synthesis. As to conditions: coupling step.
In turn, “N-tert-Butoxycarbonyl-L-valinyl-L-leucinyl-L-phenylalanyl-L-glutarimide” returned a step yield of 68%.

“N-tert-Butyloxycarbonyl-L-valinyl-L-leucinyl-L-phenylalanylglycinenitrile”: the step yield is recorded as 76%.

Staying with this series, now noted: late stage modification step.
“N-(L-Valinyl-L-leucinyl-L-phenylalanyl)-L-glutamine aldehyde” had a step yield of 5%. The substance “N-(t-butoxycarbonyl-L-valinyl-L-leucinyl-L-phenylalanyl)-L-gluatamine aldehyde” displayed a step yield of 72%. Take “N-Acetyl-L-valinyl-L-leucinyl-L-phenylalanyl-L-glutarimide”: the step yield came to 72%. The substance “N-tert-Butyloxycarbonyl-L-valinyl-L-leucinyl-L-phenylalanylglycinal” came in with a step yield of 21%.

The values above are taken from US5821331A (Eli Lilly and Company, priority 1996, dated 1998).
